Source: article PMC12305662, “Fragment-Based Development of Small Molecule Inhibitors Targeting Mycobacterium tuberculosis Cholesterol Metabolism” (Journal of Medicinal Chemistry, 2025)

The chains behind the UniProt entries cited, without tags or fusion partners. Where a name states a change or a piece, a line headed by the entry shows the natural chain unless it says otherwise.
UniProt P9WPL5: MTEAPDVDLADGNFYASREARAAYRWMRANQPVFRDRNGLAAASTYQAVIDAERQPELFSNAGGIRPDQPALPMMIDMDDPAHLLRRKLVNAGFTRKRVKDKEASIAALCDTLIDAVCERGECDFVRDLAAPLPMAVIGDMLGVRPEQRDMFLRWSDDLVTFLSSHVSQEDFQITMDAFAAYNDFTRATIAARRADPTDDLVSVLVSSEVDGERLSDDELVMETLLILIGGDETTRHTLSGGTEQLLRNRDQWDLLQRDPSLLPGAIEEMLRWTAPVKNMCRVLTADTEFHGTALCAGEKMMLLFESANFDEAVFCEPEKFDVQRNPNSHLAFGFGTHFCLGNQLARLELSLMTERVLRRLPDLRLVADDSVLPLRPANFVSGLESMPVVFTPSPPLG

How the values were obtained:
[1] = target: T1, CYP142 (Mycobacterium tuberculosis, UniProt P9WPL5)
[2] = target: T1, CYP142; remark: listed apart in the source

c1ccc(Cc2ccncc2)cc1 [1a]
CYP142 Δλmax (nm) [1]: 2 nm | KD (μM) CYP142 [2]: 180 ± 6.6 µM
